Usually koff stands for the first-order rate constant of dissociation.

Consider 15 molecules from paper PMC8955606 (Toxins, 2022).

Numbering of substitutions follows the chain as printed. Numbers in names are those of the source.

The test concerns the target Protective Antigen PA83 (83 kDa) of Bacillus anthracis (Bacillus anthracis, strain of …, UniProt P13423).

B1: 35PA83 6.20 VH A122T (antibody, V domains shown)
VH: QVQLQESGPGLLKPSETLSLTCAVSGDSISGGYYWSWIRQSPGKGLEWIGLIYGSTADTRYNPSLKGRVTISKDTSKNQLSLQLRSVTAADTAVYYCARSGYNFWSGEYYGLDSWGQGTVVTVSS
VL: AIQLTQSPSSLSAYVGDKVTITCHASQGINSWLAWYQQKPGKAPKLLIYKASSLLSGVPSRFSGSGSGTDYTLTISSLQSEDFASYYCLQYDSAPLAFGPGTKLDIK
Consider B1, for which the koff was 0.000263 s⁻¹.

B2: 35PA83 6.20 VH R92S (antibody, V domains shown)
VH: B1 VH with R85S, T119A
VL: B1 VL
The molecule B2 returned a koff of 0.000301 s⁻¹.

B3: 35PA83 6.20 VH S45P (antibody, V domains shown)
VH: B1 VH with S41P, T119A
VL: B1 VL
B3 had a koff of 0.000431 s⁻¹.

B4: 35PA83 6.20 VL Y14S (antibody, V domains shown)
VH: B1 VH with T119A
VL: B1 VL with Y14S
The molecule B4 came in with a koff of 0.000439 s⁻¹.

B5: 35PA83 6.20 VL D119E (antibody, V domains shown)
VH: B1 VH with T119A
VL: B1 VL with D105E
B5: the koff amounted to 0.00028 s⁻¹.

B6: 35PA83 6.20 VH K80V (antibody, V domains shown)
VH: B1 VH with K73V, T119A
VL: B1 VL
The molecule B6 returned a koff of 0.000908 s⁻¹.

B7: 35PA83 6.20 VH L87F (antibody, V domains shown)
VH: B1 VH with L80F, T119A
VL: B1 VL
B7 registered a koff of 0.000373 s⁻¹.

B8: 35PA83 6.20 VL Y87F (antibody, V domains shown)
VH: B1 VH with T119A
VL: B1 VL with Y71F
B8 showed a koff of 0.000129 s⁻¹.

B9: 35PA83 6.20 VH V123L (antibody, V domains shown)
VH: B1 VH with T119A, V120L
VL: B1 VL
On to B9, for which the off-rate constant (koff) was 0.000293 s⁻¹.

B10: 35PA83 6.20 VL H24R (antibody, V domains shown)
VH: B1 VH with T119A
VL: B1 VL with H24R
Take B10: the off-rate (koff) worked out at 0.000435 s⁻¹.

B11: 35PA83 6.20 VL K18R (antibody, V domains shown)
VH: B1 VH with T119A
VL: B1 VL with K18R
Take B11: the koff came out at 0.000345 s⁻¹.

B12: 35PA83 6.20 VH L13V (antibody, V domains shown)
VH: B1 VH with L12V, T119A
VL: B1 VL
In turn, B12 gave a koff of 0.000131 s⁻¹.

B13: 35PA83 6.20 VH Q90K (antibody, V domains shown)
VH: B1 VH with Q83K, T119A
VL: B1 VL
In turn, B13 had a koff of 0.00011 s⁻¹.

B14: 35PA83 6.20 VL S101T (antibody, V domains shown)
VH: B1 VH with T119A
VL: B1 VL with S85T
B14 registered a koff of 0.000159 s⁻¹.

B15: 35PA83 6.20 VH S40G (antibody, V domains shown)
VH: B1 VH with S36G, T119A
VL: B1 VL
Turning to B15, the koff came out at 0.00011 s⁻¹.
